Experimental data taken from US20180003711A1, “DIRECTED EVOLUTION OF MEMBRANE PROTEINS IN EUKARYOTIC CELLS WITH A CELL WALL” (Universität Zürich, priority 2014, published 2018).

B1: NTR1: wild-type rat neurotensin receptor 1, N-terminally truncated from amino acids 1-42 (protein, UniProt P20789 43-424, looked up, fragment)
chain: TSESDTAGPNSDLDVNTDIYSKVLVTAIYLALFVVGTVGNSVTAFTLARKKSLQSLQSTVHYHLGSLALSDLLILLLAMPVELYNFIWVHHPWAFGDAGCRGYYFLRDACTYATALNVASLSVERYLAICHPFKAKTLMSRSRTKKFISAIWLASALLAIPMLFTMGLQNRSGDGTHPGGLVCTPIVDTATVKVVIQVNTFMSFLFPMLVISILNTVIANKLTVMVHQAAEQGRVCTVGTHNGLEHSTFNMTIEPGRVQALRHGVLVLRAVVIAFVVCWLPYHVRRLMFCYISDEQWTTFLFDFYHYFYMLTNALFYVSSAINPILYNLVSANFRQVFLSTLACLCPGWRHRRKKRPTFSRKPNSMSSNHAFSTSATRETLY
B2: NK1R: wild-type human NK-1 receptor (tachykinin receptor 1, substance-P receptor) (protein, UniProt P25103 1-407, looked up)
Substance-P receptor: MDNVLPVDSDLSPNISTNTSEPNQFVQPAWQIVLWAAAYTVIVVTSVVGNVVVMWIILAHKRMRTVTNYFLVNLAFAEASMAAFNTVVNFTYAVHNEWYYGLFYCKFHNFFPIAAVFASIYSMTAVAFDRYMAIIHPLQPRLSATATKVVICVIWVLALLLAFPQGYYSTTETMPSRVVCMIEWPEHPNKIYEKVYHICVTVLIYFLPLLVIGYAYTVVGITLWASEIPGDSSDRYHEQVSAKRKVVKMMIVVVCTFAICWLPFHIFFLLPYINPDLYLKKFIQQVYLAIMWLAMSSTMYNPIIYCCLNDRFRLGFKHAFRCCPFISAGDYEGLEMKSTRYLQTQGSVYKVSRLETTISTVVGAHEEEPEDGPKATPSSLDLTSNCSSRSDSKTMTESFSFSSNVLS

system: S. cerevisiae strain BY4741; experiment: Radioligand binding assay (RLBA) on whole yeast cells: average total functional receptors per cell; assay type: cell-based, Saccharomyces cerevisiae; conditions: non-adapted yeast

Molecule | functional expression level in yeast (in words)
KOR1: wild-type human kappa-type opioid receptor [reference compound] | low expression levels
B1 | low expression levels
B2 | no functional expression at all is detected
